Reference: publication PMC4552634, “A New Set of Chemical Starting Points with Plasmodium falciparum Transmission-Blocking Potential for Antimalarial Drug Discovery” (PLoS ONE, 2015)

System: P. falciparum stage V gametocytes
Details: 48 h, 5 µM; inhibitor

## CCN1CCCC(OC(=O)C(O)(c2ccc3c(c2)OCO3)c2ccc3c(c2)OCO3)C1 (stereo not shown)
  % Inhibition: -1.39%
